Measured values from several laboratories, pooled; numbers as filed in NIAID ChemDB.

Common to all: whole-cell or culture tests; species: Candida albicans

Blank or dashed fields: not listed here.

structure	read by	strain	endpoint	value
COc1cc(O)c2c(c1)C(=O)c1c(cc3c(c1O)-c1c(cc(C)c(C(=O)N[C@H](CO)C(=O)O)c1O)[C@H](O[C@@H]1O[C@H](C)[C@H](N(C)C)[C@H](O)[C@H]1O)[C@H]3O)C2=O		A9540	MIC	6.3 µg/mL
Nc1[nH]c(=O)ncc1F		106 isolates	MIC50	0.12 µg/mL
COc1cc(C[C@H](C)[C@H](C)Cc2ccc(O)c(O)c2)ccc1O	broth dilution	CCC 127-2000	MIC80	31.25 µg/mL
O=c1c(-c2ccc(O)cc2)coc2cc(OCCCCN3CCCCC3)cc(O)c12	MTT		MIC	>50 µg/mL
COc1cc(O)c2c(c1)C(=O)c1c(cc3c(c1O)-c1c(cc(C)c(C(=O)N[C@H](C)C(=O)O)c1O)[C@H](O)[C@H]3O)C2=O		A9540	MIC	>100 µg/mL
C=CCc1ccc(OC)cc1			MIC90	0.016–0.025 µg/mL
O=c1c(-c2ccc(O)cc2)coc2cc(OCCCN3CCCCC3)cc(O)c12	MTT		MIC	>50 µg/mL
C=C(Cl)/C=C/[C@H](O)CC(=C)C[C@H]1OC2[C@@H](O)[C@]3(O)C[C@@H](O)[C@H](C)[C@H](CCC/C=C\[C@@H]4C[C@@H](O)C[C@]5(C[C@H](OC)CC(CC(=O)[C@@H](C)[C@H](OC(C)=O)[C@@H](C)C(=C)C[C@@H]6C[C@@](C)(O)C[C@]7(C[C@H](OC(C)=O)CC(CC(=O)O[C@@H]([C@@H]1O)[C@H]2C)O7)O6)O5)O4)O3		ATCC 90028	MFC	6.25 µg/mL
CCOC(=O)[C@@H](C)NC(=O)c1c(C)cc2c(c1O)-c1c(cc3c(c1O)C(=O)c1cc(OC)cc(O)c1C3=O)[C@H](O)[C@H]2O[C@@H]1O[C@H](C)[C@H](NC)[C@H](O[C@@H]2OC[C@@H](O)[C@H](O)[C@H]2O)[C@H]1O		A9540	MIC	>100 µg/mL
COc1cc(OC)cc(N2C3CCC2CC(c2cnc(N)nc2N)C3)c1		YEM13 (BENUP)	MIC	>64 µg/mL
Clc1ccc(CCC(Cn2ccnc2)Sc2c(Cl)cccc2Cl)cc1		106 isolates	MIC50	1 µg/mL
CCCCN(CCCC)CCCOc1cc(O)c2c(=O)c(-c3ccc(O)cc3)coc2c1	MTT		MIC	>50 µg/mL
CC[C@H]1OC(=O)C=C2[C@@]13O[C@@H]3C1OC(=O)[C@@]3(C)CCC[C@@]2(C)[C@@H]13		1463D	MIC	16 µg/mL
O=c1c(-c2ccc(O)cc2)coc2cc(OCCn3cnc4ccccc43)cc(O)c12	MTT		MIC	>50 µg/mL
Cc1c(N2C=NCC2)c(F)cn2c(=O)c(C(=O)O)cc(C3CC3)c12.Cl		CCH442	MIC	>100 µg/mL
O=c1c(-c2ccc(O)cc2)coc2cc(OCCCCNCc3ccco3)cc(O)c12	MTT		MIC	>50 µg/mL
CC(C)(C)C(O)(CCc1ccc(Cl)cc1)Cn1cncn1		505	MIC	4 µg/mL
C[C@@]12CCC[C@]3(C)C4=CC(=O)OC[C@]45O[C@@H]5C(OC1=O)[C@@H]23		ATCC 90029	MIC	32 µg/mL
CC1=C(N2CCC3(CC3N)C2)C(F)=CN2C(=O)C(C(=O)O)=CC(C3CC3)C12		CCH442	MIC	>100 µg/mL
COc1cc(O)c2c(c1)C(=O)c1c(cc3c(c1O)-c1c(cc(C)c(C(=O)NC(CO)C(=O)O)c1O)[C@H](OC1OC(C)C(O)C(OC4OCC(O)C(O)C4O)C1O)C3O)C2=O		ATCC 38247	MIC	3.1 µg/mL
CC1=C(N2CCC(NCC(F)(F)F)C2)C(F)=CN2C(=O)C(C(=O)O)=CC(C3CC3)C12		CCH442	MIC	>100 µg/mL
Clc1ccc(C(Cn2ccnc2)OCc2c(Cl)cccc2Cl)c(Cl)c1		106 isolates	MIC90	4 µg/mL
CN(C/C=C/C#CC(C)(C)C)Cc1cccc2ccccc12		YAG171 (genotype RBP1/RBP1)	MIC	>12.5 µg/mL
C[C@H](CCC(=O)NCCNCCNC(=O)CC[C@@H](C)[C@H]1CCC2C3CCC4C[C@H](O)CC[C@]4(C)C3C[C@H](C)[C@@]21O)[C@H]1CCC2C3CCC4C[C@H](O)CC[C@]4(C)C3C[C@H](C)[C@@]21O		Isolate 2	MIC	0.012 µM
c1ccc2c(c1)cc1[nH]c3ccccc3c1[n+]2CC1CCCCC1		B311	MIC	62.5 µg/mL
CCC(C)CCCCCCCCCCC(=O)N[C@H]1C[C@@H](O)[C@@H](O)NC(=O)C2[C@@H](O)[C@@H](C)CN2C(=O)C(CO)NC(=O)C([C@H](O)C(O)c2ccc(O)cc2)NC(=O)NC(=O)[C@@H]2C[C@@H](O)CN2C(=O)[C@H]([C@@H](C)O)NC1=O			MFC	4 µg/mL
CC(=O)N1CCN(c2ccc(OC[C@H]3CO[C@](Cn4ccnc4)(c4ccc(Cl)cc4Cl)O3)cc2)CC1		505	MIC	<2 µg/mL
Cc1c(N2CC3(CC(N)C3)C2)c(F)cn2c(=O)c(C(=O)O)cc(C3CC3)c12		CCH442	MIC	>100 µg/mL
O=C(C[n+]1c2ccccc2cc2[nH]c3ccccc3c21)c1ccccc1		B311	MIC	31.2 µg/mL
O=c1c(-c2ccc(O)cc2)coc2cc(OCCN3CCOCC3)cc(O)c12	MTT		MIC	>50 µg/mL
c1ccc(C[n+]2c3ccccc3cc3[nH]c4ccccc4c32)cc1		B311	MIC	>250 µg/mL
Cc1c(N)nc([C@H](CC(N)=O)NC[C@H](N)C(N)=O)nc1C(=O)N[C@H](C(=O)N[C@H](C)[C@@H](O)[C@H](C)C(=O)N[C@H](C(=O)NCCc1nc(-c2nc(C(=O)NCCC[S+](C)C)cs2)cs1)[C@@H](C)O)C(O[C@@H]1O[C@@H](CO)[C@@H](O)[C@H](O)[C@@H]1O[C@H]1O[C@H](CO)[C@@H](O)[C@H](OC(N)=O)[C@@H]1O)c1cnc[nH]1		Isolate 94-77	MIC	0.39 µg/mL
O=c1c(-c2ccc(O)cc2)coc2cc(OCCn3ccnc3)cc(O)c12	MTT		MIC	>50 µg/mL
Cc1c(N2CCCC(N)C2)c(F)cn2c(=O)c(C(=O)O)cc(C3CC3)c12		CCH442	MIC	>100 µg/mL
O=c1c(-c2ccc(O)cc2)coc2cc(O)cc(O)c12	MTT		MIC	>50 µg/mL
CCCCCCCCCCCCCCCC(=O)N[C@H]1C[C@@H](O)[C@@H](O)NC(=O)[C@@H]2[C@@H](O)[C@@H](C)CN2C(=O)[C@H]([C@@H](C)O)NC(=O)[C@H]([C@H](O)[C@@H](O)c2ccc(O)cc2)NC(=O)[C@@H]2C[C@@H](O)CN2C(=O)[C@H]([C@@H](C)O)NC1=O			MIC	0.25 µg/mL
c1c[nH]cn1		505	MIC	>256 µg/mL
Cc1c(N2CCc3ccccc3C2)c(F)cn2c(=O)c(C(=O)O)cc(C3CC3)c12		CCH442	MIC	>100 µg/mL
Clc1ccc(COC(Cn2ccnc2)c2ccc(Cl)cc2Cl)c(Cl)c1		106 isolates	MIC90	16 µg/mL
COc1cc(Cc2cnc(N)nc2N)cc(OC)c1OCCCNc1ccc(S(=O)(=O)c2ccc(N)cc2)cc1		YEM30 (WT)	MIC	>64 µg/mL
O=c1c(-c2ccc(O)cc2)coc2cc(OCCCCn3ccnc3)cc(O)c12	MTT		MIC	>50 µg/mL
COC[n+]1c2ccccc2cc2[nH]c3ccccc3c21		B311	MIC	250 µg/mL
Clc1ccc(COC(Cn2ccnc2)c2ccc(Cl)cc2Cl)c(Cl)c1			MIC	0.25 µg/mL
Cc1c(N2CC(N)C(O)C2)c(F)cn2c(=O)c(C(=O)O)cc(C3CC3)c12.Cl		CCH442	MIC	100 µg/mL
CC(=O)N1CCN(c2ccc(OC[C@H]3CO[C@](Cn4ccnc4)(c4ccc(Cl)cc4Cl)O3)cc2)CC1			MIC	0.5 µg/mL
C[C@H]1COc2c(N3CCC(O)C3)c(F)cn3c(=O)c(C(=O)O)cc1c23		CCH442	MIC	>100 µg/mL
CC(=O)N[C@H]1[C@@H](O[C@@H]2O[C@H](C[C@@H](O)[C@H]3O[C@@H](n4ccc(=O)[nH]c4=O)[C@H](O)[C@@H]3O)[C@H](O)[C@H](O)[C@H]2NC(=O)/C=C/CC(C)C)O[C@H](CO)[C@@H](O)[C@@H]1O			MIC	0.25 µg/mL
CC1=C(N2C[C@@H](CF)[C@@H](N)C2)C(F)=CN2C(=O)C(C(=O)O)=CC(C3CC3)C12		CCH442	MIC	>100 µg/mL

Two numbers with a dash give a range or band. A number after MIC or MFC names an inhibition level or a share of isolates. Conditions beyond the fields shown may differ between rows.